In article PMC10655190, “Targeted Mutation of a Non-catalytic Gating Residue Increases the Rate of Pseudomonas aeruginosaD-Arginine Dehydrogenase Catalytic Turnover” (Journal of Agricultural and Food Chemistry, 2023):

Key:
[1] = test system: N=C(N)NCCC[C@@H](N)C(=O)O; experiment: purified protein; settings: 1 mM PMS, 20 mM sodium pyrophosphate, pH 10.0, 25 °C
CC(C)C[C@@H](N)C(=O)O = experiment: purified protein; settings: 1 mM PMS, 20 mM sodium pyrophosphate, pH 10.0, 25 °C

Pseudomonas aeruginosa D-arginine dehydrogenase (PaDADH) (Pseudomonas aeruginosa PAO1; E246L)
Km [1]: 0.30 ± 0.02 mM
kcat [1]: 265 s⁻¹
kcat/Km [1]: 871000 M⁻¹ s⁻¹
Km (CC(C)C[C@@H](N)C(=O)O): 5.8 ± 0.6 mM
kcat (CC(C)C[C@@H](N)C(=O)O): 27 s⁻¹
kcat/Km (CC(C)C[C@@H](N)C(=O)O): 4600 M⁻¹ s⁻¹

Pseudomonas aeruginosa D-arginine dehydrogenase (PaDADH) (Pseudomonas aeruginosa PAO1; E246G)
Km [1]: 0.20 ± 0.02 mM
kcat [1]: 500 s⁻¹
kcat/Km [1]: 2.5e+06 M⁻¹ s⁻¹
Km (CC(C)C[C@@H](N)C(=O)O): 7.3 ± 0.7 mM
kcat (CC(C)C[C@@H](N)C(=O)O): 35 s⁻¹
kcat/Km (CC(C)C[C@@H](N)C(=O)O): 4800 M⁻¹ s⁻¹

Pseudomonas aeruginosa D-arginine dehydrogenase (PaDADH) (Pseudomonas aeruginosa PAO1; E246Q)
Km [1]: 0.19 ± 0.01 mM
kcat [1]: 275 s⁻¹
kcat/Km [1]: 1.5e+06 M⁻¹ s⁻¹
Km (CC(C)C[C@@H](N)C(=O)O): 11 ± 1 mM
kcat (CC(C)C[C@@H](N)C(=O)O): 30 s⁻¹
kcat/Km (CC(C)C[C@@H](N)C(=O)O): 2600 M⁻¹ s⁻¹
